Measured values from several laboratories, pooled; numbers as filed in NIAID ChemDB.

ICn: concentration for n% inhibition. Rows are shuffled and stem from different studies. MIC bound comes from a single tested concentration. Percent inhibition refers to the dose given; in toxicity tests it is the harm to the cells. Blank or dashed fields: not listed here.

structure	read by	cells	test	species	strain or isolate	read-out	protein	tested at	value
O=C(Nc1cccc2c1C(=O)c1ccc(Nc3cc(NC(=O)c4ccccc4)c4c(c3)C(=O)c3ccccc3C4=O)cc1C2=O)c1ccccc1	BACTEC		culture	Mycobacterium tuberculosis	H37Rv	MIC bound			>12.5 µg/mL
Fc1ccc(N2CCCCC2)c(NC(=S)c2ccncc2)c1	kinase activity		host protein			inhibition	GSK3beta	10 µM	79%
Cc1c2nc3ccccc3sc-2cc(=O)c1C	BACTEC		culture	Mycobacterium tuberculosis	H37Rv	inhibition		12.5 µg/mL	86%
CS(=O)(=O)Nc1cccc2c(O)c(Cl)cc(Cl)c12			culture	Mycobacterium tuberculosis	H37Rv	MIC			>100 µg/mL
OC[C@H]1O[C@@H](n2cnc3c2nnn2ccnc32)[C@H](O)[C@@H]1O	BACTEC		culture	Mycobacterium tuberculosis	H37Rv	MIC bound			>12.5 µg/mL
Nc1ncc(Br)cc1Br			culture	Mycobacterium tuberculosis	H37Rv	MIC			>100 µg/mL
COc1ccc(C(C)C)cc1-c1cncc(N2CCN(c3ccncc3)CC2)n1			target	Cytomegalovirus		IC50	UL97 kinase		<100 µM
CCC(c1ccc(C(=O)O)cc1)c1ccc(C(=O)O)cc1			culture	Mycobacterium tuberculosis	H37Rv	MIC			>100 µg/mL
Brc1ccc2[nH]c3nc(N/N=C/c4cccnc4)nnc3c2c1	resazurin		culture	Mycobacterium tuberculosis	H37Rv	inhibition		6.25 µg/mL	25%
Fc1ccccc1N1CCN(c2cncc(-c3cc(C(F)(F)F)cc(C(F)(F)F)c3)n2)CC1			target	Cytomegalovirus		IC50	UL97 kinase		<100 µM
Cc1cc(Cl)cc(SCC(=O)O)c1C#N			culture	Mycobacterium tuberculosis	H37Rv	MIC			100 µg/mL
CCCCCCCC/C=C/CCCCCCCC(=O)Nc1nnc(NCCN2CCCC2)s1			target	Human cytomegalovirus		IC50	Polymerase		<25 µM
CC(=O)N(C)c1ccc(Nc2cc(S(=O)(=O)O)c(N)c3c2C(=O)c2ccccc2C3=O)cc1	BACTEC		culture	Mycobacterium tuberculosis	H37Rv	MIC bound			>12.5 µg/mL
O=C(Nc1nnc(NC2CCN(Cc3ccccc3)CC2)s1)c1cc2ccccc2s1			target	Human cytomegalovirus		IC50	Polymerase		>25 µM
COC(=O)C1c2cc3c(c(O)c2C(O)CC1(C)O)C(=O)c1c(O)cc2c(c1C3=O)OC1OC2(C)C(O)C(N(C)C)C1O	BACTEC		culture	Mycobacterium tuberculosis	H37Rv	MIC			≥12.8 µg/mL
OCc1ccc(-c2cncc(N3CCN(c4cccc5[nH]ccc45)CC3)n2)cc1			target	Cytomegalovirus		inhibition	UL97 kinase	10 µM	>15%
CCCCCCCCCCCCCCCCCCN1c2ccccc2S(=O)c2ccccc21			culture	Mycobacterium tuberculosis	H37Rv	MIC			>100 µg/mL
CCN(CC)CCN1c2ccc(C)cc2Sc2ccc3ccccc3c21	BACTEC		culture	Mycobacterium tuberculosis	H37Rv	MIC bound			≤12.5 µg/mL
O=C(O)c1cc(=O)cc(C(=O)O)[nH]1			culture	Mycobacterium tuberculosis	H37Rv	MIC			>100 µg/mL
Fc1ccc(N2CCN(c3cncc(-c4ccc(-c5ccccc5)c(F)c4)n3)CC2)cc1			target	Cytomegalovirus		IC50	UL97 kinase		<100 µM
CC(C)NC(C)C(=O)c1ccccc1			culture	Mycobacterium tuberculosis	H37Rv	MIC			>100 µg/mL
CSC(=S)[N-]C#N.[K+]	BACTEC		culture	Mycobacterium tuberculosis	H37Rv	MIC			≥128 µg/mL
C#CC[C@@H](C(=O)N[C@H](/C=C/C(=O)OCC)C[C@@H]1CCNC1=O)n1cccc(NC(=O)c2cc(C)on2)c1=O	cytopathic effect / XTT	H1-HELA	culture	Rhinovirus	Serotype 86	inhibition		0.211 µM	90%
NS(=O)(=O)c1ccc(CNc2nnc(NC(=O)/C=C/c3ccccc3)s2)cc1			target	Human cytomegalovirus		IC50	Polymerase		<25 µM
COc1ccccc1NC(=O)C(N=Nc1ccc(S(=O)(=O)Nc2onc(C)c2C)cc1)C(C)=O	BACTEC		culture	Mycobacterium tuberculosis	H37Rv	MIC bound			>12.5 µg/mL
O=C(Nc1nnc(NCc2ccc(Cl)c(Cl)c2)s1)c1ccc(F)cc1F			target	Human cytomegalovirus		IC50	Polymerase		>25 µM
CCOC(=O)C1CSC(CCCOc2ccccc2)/C1=N\O			culture	Mycobacterium tuberculosis	H37Rv	MIC			100 µg/mL
CC1(C)CC(=O)C2=C(C1)NC(SSC1=C(C#N)C(c3ccc(Br)cc3)C3=C(CC(C)(C)CC3=O)N1)=C(C#N)C2c1ccc(Br)cc1	BACTEC		culture	Mycobacterium tuberculosis	H37Rv	inhibition		12.5 µg/mL	-1%
c1ccc(N2CCN(c3cncc(-c4ccc5ccccc5c4)n3)CC2)nc1			target	Cytomegalovirus		IC50	UL97 kinase		<1 µM
CCN(CC)CC(C)O			culture	Mycobacterium tuberculosis	H37Rv	MIC			>100 µg/mL
CC(O)C(NC(=O)C(CCCN)NC(=O)C(CC(O)CN=C(N)N)NC(=O)C(N)CCCN=C(N)N)C(=O)NC(CCCN)C(=O)NC(CC(O)CN=C(N)N)C(=O)NC(Cc1ccc(O)cc1)C(=O)O	BACTEC		culture	Mycobacterium tuberculosis	H37Rv	inhibition		12.5 µg/mL	4%
O=C(Nc1nnc(NCCCCc2ccccc2)s1)c1c(Cl)cccc1Cl			target	Human cytomegalovirus		IC50	Polymerase		>25 µM
Cc1ccc(O)c2c1C(=O)c1ccccc1C2=O			culture	Mycobacterium tuberculosis	H37Rv	MIC			>100 µg/mL
O=C1OC2CCCCC1CC2	BACTEC		culture	Mycobacterium tuberculosis	H37Rv	inhibition		12.5 µg/mL	5%
O=C(O)c1cc(Cl)c(Cl)c(Cl)c1Cl			culture	Mycobacterium tuberculosis	H37Rv	MIC			>100 µg/mL
CC#CC#C/C=C1\C=CC2(OC=CC2OC(C)=O)O1			culture	Mycobacterium tuberculosis	PAS-R	MIC			12.5 µg/mL
Nc1ccc(C(=O)Nc2cc(S(=O)(=O)O)cc3cc(S(=O)(=O)O)cc(S(=O)(=O)O)c23)cc1			culture	Mycobacterium tuberculosis	H37Rv	MIC			>100 µg/mL
CC(C)(C)OC(=O)CCNc1nnc(NC(=O)c2ccc(Cl)c(Cl)c2)s1			target	Human cytomegalovirus		IC50	Polymerase		>25 µM
O=S1(=O)CC=CC1			culture	Mycobacterium tuberculosis	H37Rv	MIC			>100 µg/mL
c1ccc(Oc2ccc(-c3cncc(N4CCN(c5ccncc5)CC4)n3)cc2)cc1			target	Cytomegalovirus		IC50	UL97 kinase		<10 µM
COC(=O)/C(=N\O)C(C(=O)C=C(C)C)C(=O)C(=O)Nc1nc2ccc([N+](=O)[O-])cc2s1	resazurin		culture	Mycobacterium tuberculosis	H37Rv	inhibition		6.25 µg/mL	5%
Cc1ccc(-c2ccccc2)n1-c1ccc(C(=O)O)cc1			culture	Mycobacterium tuberculosis	H37Rv	MIC			>100 µg/mL

Repeating the final 6 entries:

structure | read by | cells | test | species | strain or isolate | read-out | protein | tested at | value
Nc1ccc(C(=O)Nc2cc(S(=O)(=O)O)cc3cc(S(=O)(=O)O)cc(S(=O)(=O)O)c23)cc1 |  |  | culture | Mycobacterium tuberculosis | H37Rv | MIC |  |  | >100 µg/mL
CC(C)(C)OC(=O)CCNc1nnc(NC(=O)c2ccc(Cl)c(Cl)c2)s1 |  |  | target | Human cytomegalovirus |  | IC50 | Polymerase |  | >25 µM
O=S1(=O)CC=CC1 |  |  | culture | Mycobacterium tuberculosis | H37Rv | MIC |  |  | >100 µg/mL
c1ccc(Oc2ccc(-c3cncc(N4CCN(c5ccncc5)CC4)n3)cc2)cc1 |  |  | target | Cytomegalovirus |  | IC50 | UL97 kinase |  | <10 µM
COC(=O)/C(=N\O)C(C(=O)C=C(C)C)C(=O)C(=O)Nc1nc2ccc([N+](=O)[O-])cc2s1 | resazurin |  | culture | Mycobacterium tuberculosis | H37Rv | inhibition |  | 6.25 µg/mL | 5%
Cc1ccc(-c2ccccc2)n1-c1ccc(C(=O)O)cc1 |  |  | culture | Mycobacterium tuberculosis | H37Rv | MIC |  |  | >100 µg/mL